Measured values from several laboratories, pooled; numbers as filed in NIAID ChemDB.

Blank or dashed fields: not listed here. ICn: concentration for n% inhibition. MIC bound comes from a single tested concentration. Rows are shuffled and stem from different studies. Percent inhibition refers to the dose given; in toxicity tests it is the harm to the cells.

SMILES | dose | read-out | target | read by | strain or isolate | test | organism | result
O=C(O)C1NCCNC1C(=O)O | - | MIC | - | BACTEC | H37Rv | culture | Mycobacterium tuberculosis | ≥12.5 µg/mL
CCOc1cc(C)cc(C)c1N(CC)C(=O)CCC(=O)O | - | MIC | - | - | H37Rv | culture | Mycobacterium tuberculosis | 100 µg/mL
Cc1cc(C)cc(-c2cncc(N3CCN(c4ccc(F)cc4)CC3)n2)c1 | 10 µM | inhibition | UL97 kinase | - | - | target | Cytomegalovirus | >15%
Nc1ccc(N=Nc2ccc(O)c(C(=O)O)c2)cc1 | - | MIC | - | - | H37Rv | culture | Mycobacterium tuberculosis | >100 µg/mL
Cc1cccc(-c2cncc(N3CCN(c4ccccc4)CC3)n2)c1 | 10 µM | inhibition | UL97 kinase | - | - | target | Cytomegalovirus | >15%
O=C1C2=Cc3ccccc3OC2(O)Oc2cc(O)cc(O)c21 | - | MIC bound | - | BACTEC | H37Rv | culture | Mycobacterium tuberculosis | >12.5 µg/mL
CNc1cc(Br)c(N)c2c1C(=O)c1ccccc1C2=O | - | MIC | - | - | H37Rv | culture | Mycobacterium tuberculosis | >100 µg/mL
CCOc1ccc(-c2cncc(N3CCN(c4cccc(Cl)c4)CC3)n2)cc1 | - | IC50 | UL97 kinase | - | - | target | Cytomegalovirus | <10 µM
Fc1ccc(N2CCCCC2)c(NC(=S)c2ccncc2)c1 | 10 µM | inhibition | PAR-1Balpha | kinase activity | - | host protein | - | 13%
COc1ccc(-c2cncc(N3CCN(c4ccc(F)cc4)CC3)n2)cc1OC | - | IC50 | UL97 kinase | - | - | target | Cytomegalovirus | <10 µM
O=C1c2ccccc2C(=O)c2c1c(O)c1ccccc1c2O | - | MIC | - | - | H37Rv | culture | Mycobacterium tuberculosis | >100 µg/mL
COC(=O)[C@H](Cc1ccc(OC(C)(C)C)cc1)N[C@H](C)C(=O)N[C@@H](Cc1ccccc1)C(=O)OCc1ccccc1 | 6.25 µg/mL | inhibition | - | resazurin | H37Rv | culture | Mycobacterium tuberculosis | -17%
Nc1ccccc1S(=O)(=O)O | - | MIC | - | - | H37Rv | culture | Mycobacterium tuberculosis | >100 µg/mL
CCOC(=O)C1=c2[nH]c(O)c(C(=O)OCC)c2=NC1=O | - | MIC bound | - | BACTEC | H37Rv | culture | Mycobacterium tuberculosis | >12.5 µg/mL
COc1ccc2ccccc2c1C(C)=O | - | MIC | - | - | H37Rv | culture | Mycobacterium tuberculosis | 100 µg/mL
CCOC(=O)CN1C(=O)C(=O)N(c2ccc(OC)c3ccccc23)C1=O | - | MIC bound | - | BACTEC | H37Rv | culture | Mycobacterium tuberculosis | >12.5 µg/mL
COc1ccccc1N1CCN(c2cncc(-c3ccc(C(N)=O)cc3)n2)CC1 | - | IC50 | UL97 kinase | - | - | target | Cytomegalovirus | <1 µM
CCCCN(CCCC)CCNc1ccc(Cl)c2oc3cc(C)ccc3c(=O)c12.Cl | - | MIC | - | BACTEC | H37Rv | culture | Mycobacterium tuberculosis | ≥12.5 µg/mL
Cc1cc(C)cc(-c2cncc(N3CCN(c4ccncc4)CC3)n2)c1 | 1 µM | inhibition | UL97 kinase | - | - | target | Cytomegalovirus | <50%
OCc1ccc2ccc3ccc(CO)nc3c2n1 | - | MIC bound | - | BACTEC | H37Rv | culture | Mycobacterium tuberculosis | >12.5 µg/mL
Nc1ccc2c(c1)oc1cc(N)ccc12 | - | MIC | - | - | H37Rv | culture | Mycobacterium tuberculosis | >100 µg/mL

2 of the rows above, restated:

SMILES	dose	read-out	target	read by	strain or isolate	test	organism	result
CNc1cc(Br)c(N)c2c1C(=O)c1ccccc1C2=O	-	MIC	-	-	H37Rv	culture	Mycobacterium tuberculosis	>100 µg/mL
O=C1c2ccccc2C(=O)c2c1c(O)c1ccccc1c2O	-	MIC	-	-	H37Rv	culture	Mycobacterium tuberculosis	>100 µg/mL